Assay results: patent US20200362303A1, “MAINTENANCE-AND-AMPLIFICATION METHOD AND DIFFERENTIATION INDUCTION METHOD FOR PRIMORDIAL GERM CELLS/PRIMORDIAL GERM CELL-LIKE CELLS” (KYOTO UNIVERSITY, priority 2017, published 2020)

Test system: PGCLCs induced from BVSCVR ESC (XX)
Test: BVSC and VR expression by FACS in cultured PGCLC
Format: cell-based, mouse
Settings: added at c3, read at c9; varying concentrations
Experimental: The PGC/PGCLC expansion medium was constituted of 10% KSR, 2.5% FBS, 0.1 mM NEAA, 1 mM sodium pyruvate, 2 mM L-glutamine, 0.1 mM 2-mercaptoethanol, 100 U/ml penicillin, 0.1 mg/ml […] streptomycin, […] forskolin, and 10 μM rolipram. The entire medium was changed every 2 days from c3. Cytokines/compounds for induction of female fate were provided from c3 to the end of culture. RA and BMP concentrations used were 100 nM and 300 ng/ml, respectively, unless otherwise specified. Brightfield and fluorescence images were captured using an IX73 inverted microscope (Olympus).
The preparation of d4/c0 PGCLC for FACS is described in “ESC culture/induction and PGCLC induction/culture”. To isolate germ cells in vivo, fetal gonads of BVSC, VR or SG mice were cut and processed for FACS according to the procedure described for d4/c0 PGCLC. Culture PGCLC was also prepared by the same method except that, after dissociation, the cells were washed with 0.1% BSA-DMEM containing 100 μg/ml DNase (Sigma-Aldrich), lysed DNA from dead cells was digested to prevent the formation of cell/debris clumps. Fluorescent activity of BV/SG, SC, or DT/VR was detected with FITC, Horizon V500 or PE-Texas Red channels, respectively. FACS data was analyzed using FlowJo or FACS Diva software package.

BMP2: bone morphogenetic protein 2 cytokine (R&D Systems)
BVSC and VR expression: down-regulated BV and activated VR
